A mixed list of measured activities; the numbers were collected in NIAID ChemDB.

Common to all: enzyme or target tests; species: HIV-1; target: Protease; read-out: inhibition

Blank or dashed fields: not listed here.

structure	method	tested at	value
NC(=O)CCNC(=O)[C@@H]1CCCN1C(=O)[C@@H](O)[C@H](Cc1ccccc1)NC(=O)[C@H](CC(N)=O)NC(=O)CCc1ccccc1		5 µM	39.1%
CCOC(=O)[C@@]1(C)CC[C@]2(C)CC[C@]3(C)C(=CC(=O)[C@@H]4[C@@]5(C)CC/C(=N\OCc6ccccc6C#N)C(C)(C)[C@@H]5CC[C@]43C)[C@@H]2C1	substrate cleavage / fluorescence	1000 µg/mL	29.2%
CC(C)(C)NC(=O)[C@H]1N(C(=O)[C@@H](O)[C@H](Cc2ccccc2)NC(=O)[C@H](CC(N)=O)NC(=O)C/C=C/c2ccccc2)CSC1(C)C		0.05 µM	96.3%
CCC1(Cc2ccccc2)OC(=O)C(C(c2ccccc2)C(C)C)=C1O	fluorescence	3.3 µM	100%
CC(C)[C@H](N)C(=O)N[C@H](C(=O)N[C@@H](Cc1ccccc1)[C@@H](O)C(=O)N[C@@H](Cc1ccccc1)C(=O)N[C@H](C(=O)N[C@H](C(N)=O)C(C)C)C(C)C)C(C)C		1000 µM	99%
CC(C)COC(=O)C(Cc1ccc(Cl)cc1)NC(=O)C(=O)NC(Cc1ccc(Cl)cc1)C(=O)OCC(C)C	absorbance	10 µM	20%
O=C([C@@H]1O[C@]2(c3ccccc3)CN(C(c3ccccc3)c3ccccc3)C(=O)[C@H]1O2)N1CCCC1	FRET	10 µM	0%
CCOC(=O)[C@@]1(C)CC[C@]2(C)CC[C@]3(C)C(=CC(=O)[C@@H]4[C@@]5(C)CC/C(=N\OCc6cccc7ccccc67)C(C)(C)[C@@H]5CC[C@]43C)[C@@H]2C1	substrate cleavage / fluorescence	1000 µg/mL	26.6%
COc1ccc2[nH]c(=O)c(CN(C(=O)c3ccccc3)C3CCCCC3)cc2c1	substrate cleavage / fluorescence	20 µM	-33.1%
CCOC(=O)[C@@]1(C)CC[C@]2(C)CC[C@]3(C)C(=CC(=O)[C@@H]4[C@@]5(C)CC/C(=N\OCC6(C)COC6)C(C)(C)[C@@H]5CC[C@]43C)[C@@H]2C1	substrate cleavage / fluorescence	1000 µg/mL	38.9%
CN1CCN(C(=O)[C@@H]2O[C@@H]3CN(Cc4ccccc4)C(=O)[C@H]2O3)CC1	FRET	1 µM	55%
CO[C@@H]([C@@H](CC(C)[C@@H]1CC[C@]2(C)C3=CCC4C(C)(C)C(O)CC[C@]4(C)C3CC[C@@]12C)OC(C)(C)C)C(C)(C)O	substrate cleavage / fluorescence	100 µg/mL	41.6%
CC[C@H](C)COC(=O)[C@H](Cc1ccccc1)NC(=O)C(=O)N[C@@H](Cc1ccccc1)C(=O)OC[C@@H](C)CC	absorbance	10 µM	22%
CCCC1(CCC)OC(=O)C(C(c2cccc(NS(=O)(=O)c3nnnn3-c3ccccc3)c2)C2CC2)=C1O	fluorescence	3.3 µM	100%
CC(C)(C)CNC(=O)[C@@H]1CCCN1C(=O)[C@@H](O)[C@H](Cc1ccccc1)NC(=O)[C@H](CC(N)=O)NC(=O)OCc1ccccc1		5 µM	87.6%
O=C1OC2(CCCC2)C(O)=C1C(c1ccccc1)C1CC1	fluorescence	3.7 µM	100%
CCOC(=O)[C@@]1(C)CC[C@]2(C)CC[C@]3(C)C(=CC(=O)[C@@H]4[C@@]5(C)CC/C(=N\OCc6cc(C)nn6C)C(C)(C)[C@@H]5CC[C@]43C)[C@@H]2C1	substrate cleavage / fluorescence	1000 µg/mL	36.2%
COC(=O)[C@H](OC(=O)[C@H](Cc1ccccc1)NC(=O)C(=O)N[C@@H](Cc1ccccc1)C(=O)O[C@@H](C(=O)OC)C(C)C)C(C)C	absorbance	10 µM	<10%
CCOC(=O)c1ccc(CO/N=C2\CC[C@]3(C)[C@H]4C(=O)C=C5[C@@H]6C[C@@](C)(C(=O)OCC)CC[C@]6(C)CC[C@@]5(C)[C@]4(C)CC[C@H]3C2(C)C)o1	substrate cleavage / fluorescence	1000 µg/mL	34.6%
COC(=O)[C@H](CC(C)C)N1C[C@@H]2O[C@H](C1=O)[C@H](C(=O)N1CCN(C)CC1)O2	FRET	10 µM	70%
CC(C)[C@H](NC(=O)CCC(O)CCC(=O)N[C@H](C(=O)OCc1ccccc1)C(C)C)C(=O)OCc1ccccc1	absorbance	10 µM	<10%
NC(=O)C[C@H](N)C(=O)N[C@@H](Cc1ccccc1)[C@@H](O)C(=O)NCC1CCCCC1		1000 µM	7.9%
COc1cccc2cc(CN(C(=O)c3ccccc3)C3CC3)c(=O)[nH]c12	substrate cleavage / fluorescence	20 µM	-3.5%
O=C1[C@H]2O[C@@H](CN1Cc1ccccc1)O[C@H]2C(=O)N1CCC[C@@H]1CO	FRET	1 µM	0%
CC(C)(C)NC(=O)[C@@H]1CC(O)CN1C(=O)[C@@H](O)[C@H](Cc1ccccc1)NC(=O)[C@H](CS(C)(=O)=O)NC(=O)COc1cccc2ccccc12		0.05 µM	68.4%
CC(C[C@@H](O)[C@H](O)C(C)(C)O)[C@@H]1CC[C@]2(C)C3=CCC4C(C)(C)C(=O)C(O)=C[C@]4(C)C3CC[C@@]12C	substrate cleavage / fluorescence	100 µg/mL	41.4%
O=C1OC(CCCc2ccccc2)(Cc2ccccc2)C(O)=C1C(c1ccccc1)C1CC1	fluorescence	3.3 µM	100%
CC(C)COC(=O)[C@H](Cc1ccccc1)NC(=O)CCC(=O)N[C@@H](Cc1ccccc1)C(=O)OCC(C)C	absorbance	10 µM	23%
O=C1OC(C(CCc2ccccc2)c2ccccc2)C(O)=C1C(c1ccccc1)C1CC1	fluorescence	10 µM	100%
COc1ccc2[nH]c(=O)c(CNC3CCCCC3)cc2c1	substrate cleavage / fluorescence	20 µM	-44.7%
CC[C@@H](C)[C@H](NC(=O)[C@@H]1CCCN1C(=O)[C@@H](O)[C@H](CC1CCCCC1)NC(=O)[C@H](CC(N)=O)NC(=O)CCc1ccccc1)C(=O)N[C@H](C(N)=O)C(C)C		5 µM	74.3%
CC(C)CNC(=O)C(CC(C)C)NC(=O)C(=O)NC(CC(C)C)C(=O)NCC(C)C	absorbance	10 µM	21%
CC(C[C@@H](OC(=O)CC(C)(C)CC(=O)O)[C@H](OC(=O)CC(C)(C)CC(=O)O)C(C)(C)O)[C@@H]1CC[C@]2(C)C3=CCC4C(C)(C)C(=O)CC[C@]4(C)C3CC[C@@]12C	substrate cleavage / fluorescence	100 µg/mL	46.5%
CC(C)(C)NC(=O)[C@@H]1C[C@H](c2ccccc2)CN1C(=O)[C@@H](O)[C@H](Cc1ccccc1)NC(=O)[C@H](CC(N)=O)NC(=O)OCc1ccccc1		0.05 µM	4%
COc1ccc2[nH]c(=O)c(CN(C(=O)c3ccccc3)C3CC3)cc2c1	substrate cleavage / fluorescence	20 µM	-7.4%
C=C(C)[C@@H]1CC[C@@]2(C)C1C1CCC3[C@@](C)(CC(=O)O)C(C(C)(C)C(=O)O)CC[C@@]3(C)[C@]1(C)C[C@@H]2O	substrate cleavage / fluorescence	100 µg/mL	59.2%
CC(C)COC(=O)[C@H](Cc1ccccc1)NC(=O)C(NC(=O)OC(C)(C)C)C(=O)N[C@@H](Cc1ccccc1)C(=O)OCC(C)C	absorbance	10 µM	45%
CC(C[C@@H](OC(=O)CC(C)(C)C(=O)O)[C@H](OC(=O)CC(C)(C)C(=O)O)C(C)(C)O)[C@@H]1CC[C@]2(C)C3=CCC4C(C)(C)C(=O)CC[C@]4(C)C3CC[C@@]12C	substrate cleavage / fluorescence	100 µg/mL	49.8%
CCOC(=O)[C@@]1(C)CC[C@]2(C)CC[C@]3(C)C(=CC(=O)[C@@H]4[C@@]5(C)CC/C(=N\OCc6ccc(F)cc6)C(C)(C)[C@@H]5CC[C@]43C)[C@@H]2C1	substrate cleavage / fluorescence	1000 µg/mL	53.6%
CCCC1(Cc2ccccc2)OC(=O)C(C(c2cccc(NS(=O)(=O)c3cccc4cccnc34)c2)C(C)C)=C1O	fluorescence	3.3 µM	100%
NC(=O)C[C@H](NC(=O)COc1cccc2ccccc12)C(=O)N[C@@H](Cc1ccccc1)[C@H](O)C(=O)N1CSC[C@H]1C(=O)NC1CC1		0.05 µM	89.5%
CCCC1(CCC)OC(=O)C(C(c2cccc(N)c2)C2CC2)=C1O.Cl	fluorescence	3.3 µM	100%
COc1cccc2cc(CN(C(=O)c3ccccc3)C3CCCCC3)c(=O)[nH]c12	substrate cleavage / fluorescence	20 µM	-15.6%

A second listing of 4 rows from above:

structure | method | tested at | value
CCC1(Cc2ccccc2)OC(=O)C(C(c2ccccc2)C(C)C)=C1O | fluorescence | 3.3 µM | 100%
NC(=O)CCNC(=O)[C@@H]1CCCN1C(=O)[C@@H](O)[C@H](Cc1ccccc1)NC(=O)[C@H](CC(N)=O)NC(=O)CCc1ccccc1 |  | 5 µM | 39.1%
COC(=O)[C@H](CC(C)C)N1C[C@@H]2O[C@H](C1=O)[C@H](C(=O)N1CCN(C)CC1)O2 | FRET | 10 µM | 70%
O=C1OC(C(CCc2ccccc2)c2ccccc2)C(O)=C1C(c1ccccc1)C1CC1 | fluorescence | 10 µM | 100%

Rows are shuffled and stem from different studies. Percent inhibition refers to the dose given; in toxicity tests it is the harm to the cells.